Anti-infective test results gathered from many reports (values: NIAID ChemDB through PubChem).

All rows: growth or infection tests; species: Aspergillus fumigatus

Zone: diameter of growth inhibition.

CCCCCOc1ccc(-c2cc(-c3ccc(C(=O)N[C@H]4C[C@@H](O)[C@@H](O)NC(=O)[C@@H]5[C@@H](O)[C@@H](C)CN5C(=O)[C@H]([C@H](O)CC(N)=O)NC(=O)[C@H]([C@H](O)[C@@H](O)c5ccc(O)c(OS(=O)(=O)O)c5)NC(=O)[C@@H]5C[C@@H](O)CN5C(=O)[C@H]([C@@H](C)O)NC4=O)cc3)no2)cc1 ; strain: 19 isolates ; measure: MFC50 ; value: >64 µg/mL
Cc1nc(OCc2nc(-c3ccccc3)n[nH]2)c2ccccc2n1 ; strain: MTCC 343 ; measure: MIC100 ; value: 50 µg/mL
C[C@@H](N1CCN(Cc2cn(Cc3ccc(C(F)(F)F)cc3)c3ccccc23)CC1)[C@](O)(Cn1cncn1)c1ccc(F)cc1F ; strain: ATCC 16424 ; measure: MIC80 ; read by: resazurin ; value: 2 µg/mL
COc1ccc2nc(NC(=O)CSc3nnc(-c4ccc5ncccc5c4)o3)sc2c1 ; measure: MIC ; read by: agar ; value: 100 µg/mL
CC1=CC[C@@H]2[C@H](C1)C2(C)C ; strain: F17 ; measure: MLC ; value: 0.64 µg/mL
O=C(/C=C/c1ccccc1Br)OC1CCN(CC(O)(Cn2cncn2)c2ccc(F)cc2F)CC1 ; strain: 0504656 ; measure: MIC80 ; read by: broth dilution ; value: 1.831 µM
CC(C)CC(O)C(=O)O ; strain: MRCM 32208 ; measure: MFC100 ; read by: broth dilution / visual reading ; value: 18000 µg/mL
C[C@H]1[C@H](O)[C@@H](C)/C=C/C=C/C=C/C=C/C=C/C=C/C=C/[C@H](O[C@@H]2O[C@H](C)[C@@H](O)[C@H](N)[C@@H]2O)C[C@@H]2O[C@](O)(C[C@@H](O)C[C@@H](O)CC[C@H](O)[C@@H](O)C[C@@H](O)CC(=O)O[C@H]1C)C[C@H](O)[C@H]2C(=O)O ; strain: 3 isolates ; measure: Geometric mean MIC ; value: 0.47 µg/mL
CCN1CCC(O)(/C=C/c2ccc(C)cc2)C(C(=O)/C=C/c2ccc(C)cc2)C1 ; strain: 20 strains ; measure: Mean MIC ; value: 92.2 µM
CCC(C)CCCCCCCCCCC(=O)N[C@H]1C[C@@H](O)[C@@H](NCCN2CCOCC2)NC(=O)C2[C@@H](O)[C@@H](C)CN2C(=O)C(CO)NC(=O)C([C@H](O)C(NCCN2CCOCC2)c2ccc(O)cc2)NC(=O)NC(=O)[C@@H]2C[C@@H](O)CN2C(=O)[C@H]([C@@H](C)O)NC1=O ; strain: AF-1 ; measure: zone ; read by: agar ; tested at: 5 mg/mL ; value: 16 mm
COc1ccc(NC(=O)CSc2nnc(-c3ccc4ncccc4c3)o2)cc1 ; measure: MIC ; read by: agar ; value: 100 µg/mL
C[C@@H](N1CCN(Cc2cn(Cc3ccc(Cl)cc3)c3c(F)cccc23)CC1)[C@](O)(Cn1cncn1)c1ccc(F)cc1F ; strain: ATCC 16424 ; measure: MIC80 ; read by: resazurin ; value: 16 µg/mL
CCC(C)CCCCCCCCCCC(=O)N[C@H]1C[C@@H](O)[C@@H](Sc2ccccc2)NC(=O)C2[C@@H](O)[C@@H](C)CN2C(=O)C(CO)NC(=O)C([C@H](O)C(O)c2ccc(O)cc2)NC(=O)NC(=O)[C@@H]2C[C@@H](O)CN2C(=O)[C@H]([C@@H](C)O)NC1=O ; strain: AF-1 ; measure: zone ; read by: agar ; tested at: 2 mg/mL ; value: 17 mm
O=C(/C=C/c1ccc(F)cc1)OC1CCN(CC(O)(Cn2cncn2)c2ccc(F)cc2F)CC1 ; strain: 0504656 ; measure: MIC80 ; read by: broth dilution ; value: 0.514 µM
C=CCn1cc(CN2CCN([C@H](C)[C@](O)(Cn3cncn3)c3ccc(F)cc3F)CC2)c2ccc(Cl)cc21 ; strain: ATCC 16424 ; measure: MIC80 ; read by: resazurin ; value: 8 µg/mL
CCC(C)CCCCCCCCCCC(=O)N[C@H]1C[C@@H](O)[C@@H](OC)NC(=O)C2[C@@H](O)[C@@H](C)CN2C(=O)C(CO)NC(=O)C([C@H](O)C(O)c2ccc(O)cc2)NC(=O)NC(=O)[C@@H]2C[C@@H](O)CN2C(=O)[C@H]([C@@H](C)O)NC1=O ; strain: AF-1 ; measure: zone ; read by: agar ; tested at: 1 mg/mL ; value: 25 mm
FC(F)(F)c1nc(OCc2nc(-c3ccco3)n[nH]2)c2ccccc2n1 ; strain: MTCC 343 ; measure: MIC100 ; value: 25 µg/mL
CCC(C)n1ncn(-c2ccc(N3CCN(c4ccc(OC[C@H]5CO[C@](Cn6cncn6)(c6ccc(Cl)cc6Cl)O5)cc4)CC3)cc2)c1=O ; strain: 50 strains ; measure: Mean MIC ; value: 0.67 µg/mL
c1ccc(-c2n[nH]c(COc3ncnc4ccccc34)n2)cc1 ; strain: MTCC 343 ; measure: MIC100 ; value: 50 µg/mL
COc1ccc(/C=C/C(=O)OC2CCN(CC(O)(Cn3cncn3)c3ccc(F)cc3F)CC2)cc1OC ; strain: 0504656 ; measure: MIC80 ; read by: broth dilution ; value: 1.893 µM
CC(C)C[C@H](N)C(=O)O ; strain: MRCM 32552 ; measure: MFC100 ; read by: broth dilution ; value: >18000 µg/mL
COc1ccc(-c2n[nH]c(COc3nc(C)nc4ccccc34)n2)cc1OC ; strain: MTCC 343 ; measure: MIC100 ; value: 25 µg/mL
O=C(CSc1nnc(-c2ccc3ncccc3c2)o1)Nc1nc2ccc(F)cc2s1 ; measure: MIC ; read by: agar ; value: 25 µg/mL
CCC(C)n1ncn(-c2ccc(N3CCN(c4ccc(OC[C@H]5CO[C@](Cn6cncn6)(c6ccc(Cl)cc6Cl)O5)cc4)CC3)cc2)c1=O ; strain: 62 isolates ; measure: Geometric mean MIC ; value: 0.676 µg/mL
Cc1onc(-c2cccc(Br)c2)c1C=O ; strain: Clinical isolates ; measure: EC50 ; value: 8.86 µg/mL
CC(O)Cc1ccc(Cn2cc(CN3CCN([C@H](C)[C@](O)(Cn4cncn4)c4ccc(F)cc4F)CC3)c3cccc(F)c32)cc1 ; strain: ATCC 16424 ; measure: MIC80 ; read by: resazurin ; value: >128 µg/mL
CC(=O)Nc1ccc2nc(NC(=O)CSc3nnc(-c4ccc5ncccc5c4)o3)sc2c1 ; measure: MIC ; read by: agar ; value: 100 µg/mL
C[C@@H]1CCC2(OC1)OC1CC3C4C[C@H](O)[C@H]5C[C@@H](O)CC[C@]5(C)C4CC(=O)[C@]3(C)C1[C@@H]2C ; strain: ATCC 90906 ; measure: MFC ; value: 20 µg/mL
C[C@@H](c1ncncc1F)[C@](O)(Cn1cncn1)c1ccc(F)cc1F ; measure: MLC50 ; value: 0.25 µg/mL
O=C(Cn1ccnc1)c1ccc(F)cc1F ; measure: inhibition ; read by: broth dilution ; tested at: 80 µg/mL ; value: 45%
CCCCCOc1ccc(-c2ccc(-c3ccc(C(=O)N[C@H]4C[C@@H](O)[C@@H](O)NC(=O)[C@@H]5[C@@H](O)[C@@H](C)CN5C(=O)[C@H]([C@H](C)O)NC(=O)[C@H]([C@H](O)[C@@H](O)c5ccc(O)cc5)NC(=O)[C@@H]5C[C@@H](O)CN5C(=O)[C@H]([C@H](C)O)NC4=O)cc3)cc2)cc1 ; strain: 10AF ; measure: MFC ; value: >100 µg/mL
O=Cc1cc(-c2ccc([N+](=O)[O-])cc2)no1 ; strain: Clinical isolates ; measure: EC50 ; value: >50 µg/mL
CCC(C)CCCCCCCCCCC(=O)N[C@H]1C[C@@H](O)[C@@H]([n+]2cc[nH]c2)NC(=O)C2[C@@H](O)[C@@H](C)CN2C(=O)C(CO)NC(=O)C([C@H](O)C(O)c2ccc(O)cc2)NC(=O)NC(=O)[C@@H]2C[C@@H](O)CN2C(=O)[C@H]([C@@H](C)O)NC1=O ; strain: AF-1 ; measure: zone ; read by: agar ; tested at: 2 mg/mL ; value: 24 mm
C=CCc1ccc(Cn2cc(CN3CCN([C@H](C)[C@](O)(Cn4cncn4)c4ccc(F)cc4F)CC3)c3cccc(F)c32)cc1 ; strain: ATCC 16424 ; measure: MIC80 ; read by: resazurin ; value: 64 µg/mL
C[C@H]1[C@H](O)[C@@H](C)/C=C/C=C/C=C/C=C/C=C/C=C/C=C/[C@H](O[C@@H]2O[C@H](C)[C@@H](O)[C@H](N)[C@@H]2O)C[C@@H]2O[C@](O)(C[C@@H](O)C[C@@H](O)CC[C@H](O)[C@@H](O)C[C@@H](O)CC(=O)O[C@H]1C)C[C@H](O)[C@H]2C(=O)O ; strain: Isolate AF210 ; measure: MFC ; value: 8 µg/mL
CCOC(=O)C[C@H](O)C[C@H](O)CC[C@@H]1[C@@H]2C(=CCC[C@@H]2C(=O)O[C@H](C)CC)C=C[C@@H]1C ; measure: zone ; read by: agar diffusion ; tested at: 5 mg/disc ; value: 0 mm
CCC(C)CC(C)CCCCCCCCC(=O)N[C@H]1C[C@@H](O)[C@H](NCCN)NC(=O)[C@@H]2[C@@H](O)CCN2C(=O)[C@H]([C@H](O)CCN)NC(=O)[C@H]([C@H](O)[C@@H](O)c2ccc(O)cc2)NC(=O)[C@@H]2C[C@@H](O)CN2C(=O)[C@H]([C@@H](C)O)NC1=O ; strain: 62 isolates ; measure: Geometric mean MIC ; value: 0.437 µg/mL
CCC(C)CCCCCCCCCCC(=O)N[C@H]1C[C@@H](O)[C@@H](SCC(=O)OC)NC(=O)C2[C@@H](O)[C@@H](C)CN2C(=O)C(CO)NC(=O)C([C@H](O)C(SCC(=O)OC)c2ccc(O)cc2)NC(=O)NC(=O)[C@@H]2C[C@@H](O)CN2C(=O)[C@H]([C@@H](C)O)NC1=O ; strain: AF-1 ; measure: zone ; read by: agar ; tested at: 2 mg/mL ; value: 20 mm
O=C(Cn1cncn1)c1ccc([N+](=O)[O-])cc1 ; measure: inhibition ; read by: broth dilution ; tested at: 100 µg/mL ; value: 93%
c1ccc(-c2ccc(C(c3ccccc3)n3ccnc3)cc2)cc1 ; strain: ATCC 9142 ; measure: MFC ; read by: broth dilution ; value: 200 µg/mL
COc1ccc(/C=C/C(=O)OC2CCN(CC(O)(Cn3cncn3)c3ccc(F)cc3F)CC2)cc1 ; strain: 0504656 ; measure: MIC80 ; read by: broth dilution ; value: 2.007 µM
Brc1ccc(-c2n[nH]c(COc3ncnc4ccccc34)n2)cc1 ; strain: MTCC 343 ; measure: MIC100 ; value: 25 µg/mL
CCC(C)n1ncn(-c2ccc(N3CCN(c4ccc(OC[C@H]5CO[C@](Cn6cncn6)(c6ccc(Cl)cc6Cl)O5)cc4)CC3)cc2)c1=O ; strain: 35 isolates ; measure: MFC90 ; value: 16 µg/mL
CCC(C)n1ncn(-c2ccc(N3CCN(c4ccc(OC[C@H]5CO[C@](Cn6cncn6)(c6ccc(Cl)cc6Cl)O5)cc4)CC3)cc2)c1=O ; strain: AF293 ; changes: sakA ; measure: inhibition ; read by: broth dilution ; tested at: 2 µg/mL ; value: 99.85%
Clc1ccc(C(Cn2ccnc2)OCc2csc3c(Cl)cccc23)c(Cl)c1 ; strain: 2 strains ; measure: Mean MIC ; value: 1.41 µg/mL
COc1cc(-c2n[nH]c(COc3ncnc4ccccc34)n2)cc(OC)c1OC ; strain: MTCC 343 ; measure: MIC100 ; value: 6.25 µg/mL
C[C@@H](c1ncncc1F)[C@](O)(Cn1cncn1)c1ccc(F)cc1F ; strain: 35 isolates ; measure: Geometric mean MIC ; value: 0.67 µg/mL
CCC(C)CCCCCCCCCCC(=O)N[C@H]1C[C@@H](O)[C@@H](SCC(=O)OC)NC(=O)C2[C@@H](O)[C@@H](C)CN2C(=O)C(CO)NC(=O)C([C@H](O)C(O)c2ccc(O)cc2)NC(=O)NC(=O)[C@@H]2C[C@@H](O)CN2C(=O)[C@H]([C@@H](C)O)NC1=O ; strain: AF-1 ; measure: zone ; read by: agar ; tested at: 5 mg/mL ; value: 29 mm
COC(=O)[C@H]1[C@@H]2C[C@@H](O[C@@H]3O[C@H](C)[C@@H](O)[C@H](N)[C@@H]3O)/C=C/C=C/C=C/C=C/C=C/C=C/C=C/[C@H](C)[C@@H](O)[C@H](C)[C@H](C)OC(=O)C[C@H](O)C[C@H](O)[C@@H](O)CC[C@H](O)C[C@H](O)C[C@](O)(C[C@@H]1O)O2 ; strain: H11-20 ; measure: MLC ; value: 0.58 µg/mL
Cc1nc(OCc2nc(-c3ccco3)n[nH]2)c2ccccc2n1 ; strain: MTCC 343 ; measure: MIC100 ; value: 12.5 µg/mL
Cc1ccc2nc(NC(=O)CSc3nnc(-c4ccc5ncccc5c4)o3)sc2c1 ; measure: MIC ; read by: agar ; value: 100 µg/mL
OC(Cn1cncn1)c1ccc(F)cc1F ; measure: inhibition ; read by: broth dilution ; tested at: 100 µg/mL ; value: 54%
CCCCCCCC(=O)OC1CCN(CC(O)(Cn2cncn2)c2ccc(F)cc2F)CC1 ; strain: 0504656 ; measure: MIC80 ; read by: broth dilution ; value: 2.221 µM
CN1CCN(c2n[nH]c(N3C(=O)CS[C@@H]3c3ccc4c(c3)OCO4)n2)CC1 ; strain: 168.95 ; measure: MIC80 ; read by: broth dilution ; value: 10 µg/mL
CCN1CCC(O)(/C=C/c2ccc(Cl)c(Cl)c2)C(C(=O)/C=C/c2ccc(Cl)c(Cl)c2)C1 ; strain: 20 strains ; measure: Mean MIC ; value: 24.37 µM
O=Cc1cc(-c2ccc(F)cc2)on1 ; strain: Clinical isolates ; measure: EC50 ; value: >50 µg/mL
Cc1nc(OCc2nc(-c3ccc(Br)cc3)n[nH]2)c2ccccc2n1 ; strain: MTCC 343 ; measure: MIC100 ; value: 25 µg/mL

The last 4 rows once more:

SMILES,strain,changes,measure,read by,tested at,value
CN1CCN(c2n[nH]c(N3C(=O)CS[C@@H]3c3ccc4c(c3)OCO4)n2)CC1,168.95,,MIC80,broth dilution,,10 µg/mL
CCN1CCC(O)(/C=C/c2ccc(Cl)c(Cl)c2)C(C(=O)/C=C/c2ccc(Cl)c(Cl)c2)C1,20 strains,,Mean MIC,,,24.37 µM
O=Cc1cc(-c2ccc(F)cc2)on1,Clinical isolates,,EC50,,,>50 µg/mL
Cc1nc(OCc2nc(-c3ccc(Br)cc3)n[nH]2)c2ccccc2n1,MTCC 343,,MIC100,,,25 µg/mL

A number after MIC or MFC names an inhibition level or a share of isolates. Inhibition is in % at the dose shown (toxicity tests: loss of growth or viability). Neighbouring rows are from separate reports. Blank or dashed fields: not listed here. ECn: concentration that inhibits the pathogen or its effect by n%.